Series [1] has as its target T1, DprA (DprANm) (Neisseria meningitidis MC58) (UniProt Q9K1K1).
T1 sequence (looked up, limits assumed): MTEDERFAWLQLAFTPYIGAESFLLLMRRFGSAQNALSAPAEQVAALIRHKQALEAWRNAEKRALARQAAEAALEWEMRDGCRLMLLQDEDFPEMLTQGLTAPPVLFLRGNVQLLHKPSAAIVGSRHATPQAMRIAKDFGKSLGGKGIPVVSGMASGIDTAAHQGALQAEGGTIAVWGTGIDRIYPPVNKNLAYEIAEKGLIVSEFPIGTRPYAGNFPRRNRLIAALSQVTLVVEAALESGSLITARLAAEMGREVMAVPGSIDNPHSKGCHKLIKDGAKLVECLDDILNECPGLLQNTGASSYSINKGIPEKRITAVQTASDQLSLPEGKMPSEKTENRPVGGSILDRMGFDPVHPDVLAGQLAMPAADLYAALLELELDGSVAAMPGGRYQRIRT
Kind of series: competition with a labelled probe. To be noted: 30 nM DprA, complex less stable above ~15 nM DNA, EMSA: 40 mM Tris-HCl pH 8, 2.5 mM EDTA, 2 mM MgCl2, 6% glycerol, 1 mM DTT, 30 min on ice, 5% native PAGE at 4 °C, recombinant protein, protein details: N-terminal 6xHis (pET28b, cleavable), single-stranded DNA. For orientation: In EMSA bound probe runs differently from free probe, usually more slowly.

The target in series [2] is T1, DprA (DprANm) (Neisseria meningitidis MC58). Kind of series: EMSA. Conditions: EMSA: 40 mM Tris-HCl pH 8, 2.5 mM EDTA, 2 mM MgCl2, 6% glycerol, 1 mM DTT, 30 min on ice, 5% native PAGE at 4 °C, recombinant protein, protein details: N-terminal 6xHis (pET28b, cleavable).

For at least one entry, the source does not settle the construct or the ends of the probe. For some of these results: Weaker means in comparison with the reference protein, sequence or condition of that experiment. Tags and fusion partners may be left off the protein sequences shown. At least one verdict was read from the data and is not stated in words by the source.

Turning to “GCCGTCTGAAAGCTCTAGGCCGTCTGAAACGTCAGGCCGTCTGAAAGCTCTAGGCCGTCTGAAACGTCAGGCCGTCTGAA [GTB25 (unlabelled competitor)]”, the binding result in series [1] (hot GTB25 (self-competition)) was “binds”.

As for “GCTGATCAACCCTACATGTGTAGGTAACCCTAACCCTAACCCTAAGGACAACCCTAGTGAAGCTTGTAACCCTAGGAGCT (double strand) [G80C80 (C80G80)]”, the binding result in series [2] (0.5-80 nM DprA, weaker than ssDNA C80, label: 32P end label) is given as “binds more weakly”.

On to “GCTGATCAACCCTACATGTGTAGGTAACCCTAACCCTAACCCTAAGGACAACCCTAGTGAAGCTTGTAACCCTAGGAGCT [C80 (unlabelled competitor)]”, for which the binding result in series [1] (hot C80 (self-competition)) is on record as “binds”.

In the case of “TTTTTTTTTTTTTTTTTTTTTTTTTTTTTTTTTTTTTTTTTTTTTTTTTTTTTTTTTTTTTTTTTTTTTTTTTTTTTTTTTTTTTTTTTTTTTTTTTTTT [dT100]”, in series [2] (30 nM DprA, affinity increases with length, label: 32P, single-stranded DNA), the binding result is recorded as “binds”.

Values taken from PMC5817196, “DprA from Neisseria meningitidis: properties and role in natural competence for transformation” (Microbiology, 2017).
